Assay results as given in paper PMC7540527, “Synthesis of Antiviral Perfluoroalkyl Derivatives of Teicoplanin and Vancomycin” (Chemmedchem, 2020).

Test system: panel of Gram-positive bacteria
Assay: Antibacterial activity on a panel of Gram-positive bacteria, overall statement
Format: cell-based
Conditions: for Antibacterial activity against resistant enterococci (in words): resistant enterococci having vanA and vanB genes

| Compound | Antibacterial activity against resistant enterococci (in words) | Antibacterial activity against sensitive and resistant staphylococci (in words) |
| --- | --- | --- |
| CC(=O)NC1C(OC2c3ccc(c(Cl)c3)Oc3cc4cc(c3O)Oc3ccc(cc3Cl)CC3NC(=O)C(n5cc(COCCOCCCC(F)(F)C(F)(F)C(F)(F)C(F)(F)F)nn5)c5ccc(O)c(c5)Oc5cc(O)cc(c5)C(NC3=O)C(=O)NC4C(=O)NC3C(=O)NC2C(=O)NC(C(=O)O)c2cc(O)cc(O)c2-c2cc3ccc2O)OC(CO)C(O)C1O (stereo not shown) [Compound 15] | good activity | excellent antibacterial activity |
| CC(=O)NC1C(OC2c3ccc(c(Cl)c3)Oc3cc4cc(c3O)Oc3ccc(cc3Cl)CC3NC(=O)C(n5cc(COCCOCCOCCOCCOCCCC(F)(F)C(F)(F)C(F)(F)C(F)(F)F)nn5)c5ccc(O)c(c5)Oc5cc(O)cc(c5)C(NC3=O)C(=O)NC4C(=O)NC3C(=O)NC2C(=O)NC(C(=O)O)c2cc(O)cc(O)c2-c2cc3ccc2O)OC(CO)C(O)C1O (stereo not shown) [Compound 16] | good activity | excellent antibacterial activity |
